In the supplement of paper PMC13380429:
For part of these data: This list holds what a sample rich in highest values left over. For part of these data: Most of the hits are listed elsewhere, so they are rarer here than in the full data.

Legend:
[1] = system: Vero E6 infected with SARS-CoV-2; experiment: inhibition of SARS-CoV-2 cytopathic effect; higher = more antiviral protection, active = above 15; details: 48 h
[2] = system: Vero E6 infected with SARS-CoV-2; experiment: morphology score (similarity to uninfected cells); higher = more like uninfected cells; details: 10 µM; 24 h
[3] = system: Vero E6 infected with SARS-CoV-2; experiment: SARS-CoV-2 infection rate relative to infected DMSO; higher = more infection, active = 60 or less; details: 10 µM; 24 h

COc1cc(Br)c(C[N+]2(CCOCCC3CCC4CC3C4(C)C)CCOCC2)cc1OC (configuration not stated) [pinaverium]
inactive: inhibition of SARS-CoV-2 cytopathic effect ([1]; 1 nM) 1.66% | inhibition of SARS-CoV-2 cytopathic effect ([1]; 8.33 nM) 0.27% | inhibition of SARS-CoV-2 cytopathic effect ([1]; 100 nM) 1.52% | inhibition of SARS-CoV-2 cytopathic effect ([1]; 833.33 nM) -1.65% | inhibition of SARS-CoV-2 cytopathic effect ([1]; 10000 nM) 1.64%

N/C(=N/CCc1ccc(I)cc1)SCCCc1cnc[nH]1 [iodophenpropit]
inactive: inhibition of SARS-CoV-2 cytopathic effect ([1]; 1 nM) 3.1% | inhibition of SARS-CoV-2 cytopathic effect ([1]; 8.33 nM) 0.48% | inhibition of SARS-CoV-2 cytopathic effect ([1]; 100 nM) 1.12% | inhibition of SARS-CoV-2 cytopathic effect ([1]; 833.33 nM) 5.3% | inhibition of SARS-CoV-2 cytopathic effect ([1]; 10000 nM) -0.14% | SARS-CoV-2 infection rate [3] 80.5%
0.216: morphology score [2]
